In the CheMixHub viscosity set:

Experiment: xn = mol fraction of the nth substance listed
Conditions: 100 kPa

CCCCOP(=O)(OCCCC)OCCCC + CCc1ccccc1
viscosity [mPa·s]
Conditions | 303.15 K | 308.15 K | 313.15 K | 318.15 K | 323.15 K
x1 = 0.0506 | 0.676 | 0.634 | 0.598 | 0.567 | 0.535
x1 = 0.1005 | 0.758 | 0.711 | 0.671 | 0.634 | 0.6
x1 = 0.15 | 0.845 | 0.791 | 0.744 | 0.702 | 0.662
x1 = 0.1999 | 0.939 | 0.876 | 0.821 | 0.77 | 0.723
x1 = 0.25 | 1.038 | 0.964 | 0.9 | 0.84 | 0.784
x1 = 0.3 | 1.142 | 1.055 | 0.982 | 0.912 | 0.846
x1 = 0.3509 | 1.252 | 1.151 | 1.068 | 0.987 | 0.909
x1 = 0.3997 | 1.361 | 1.247 | 1.152 | 1.061 | 0.972
x1 = 0.4499 | 1.477 | 1.348 | 1.241 | 1.139 | 1.039
x1 = 0.5 | 1.596 | 1.451 | 1.333 | 1.219 | 1.108
x1 = 0.5498 | 1.718 | 1.557 | 1.427 | 1.301 | 1.179
x1 = 0.6001 | 1.844 | 1.667 | 1.524 | 1.387 | 1.253
x1 = 0.6491 | 1.969 | 1.777 | 1.621 | 1.472 | 1.328
x1 = 0.6991 | 2.1 | 1.891 | 1.722 | 1.561 | 1.406
x1 = 0.7498 | 2.235 | 2.01 | 1.826 | 1.654 | 1.488
x1 = 0.7999 | 2.373 | 2.131 | 1.932 | 1.747 | 1.57
x1 = 0.8502 | 2.514 | 2.255 | 2.039 | 1.842 | 1.653
x1 = 0.8996 | 2.656 | 2.38 | 2.147 | 1.937 | 1.734
